Pooled drug test results. Numbers come from NIAID ChemDB, via PubChem.

Shared fields: growth or infection tests; agent: HIV-2; strain or isolate: ROD; method: MTT; read-out: EC50

Conditions beyond the fields shown may differ between rows.

structure | cells | value
CC(=O)Nc1cnc(Oc2c(C)cc(C)cc2C)nc1Nc1ccc(C#N)cc1 | MT-4 | >322 µM
CCOc1ccc(NC(=S)Nc2nc(NCCc3ccc(OC)c(OC)c3)nc(Oc3cc(=O)oc4ccccc34)n2)cc1 | MT-4 | 10 µg/mL
COc1cc(/C=C/c2nc(NC(=S)Nc3ccc(C)cc3)c3ccccc3n2)cc(OC)c1OC | MT-4 | >1.7 µg/mL
Nc1cc2c(=O)c(C(=O)O)cn(N)c2cc1N1CCN(c2nc3ccccc3s2)CC1 | MT-4 | >0.17 µM
COc1ccc(-c2cc(N)nc(=O)n2C)cc1OC | MT-4 | >14.23 µM
CC1=C[C@H](Cn2cnc3c(N)ncnc32)C[C@@H]1CO | MT-4 | >100 µg/mL
Brc1cccc(-c2nc(-c3nnc(C45CCC6CC(CC4C6)C5)o3)cs2)c1 | MT-4 | >125 µM
COc1cc(/C=C/c2nc(NC(=S)Nc3ccccc3)c3ccccc3n2)cc(OC)c1OC | MT-4 | >5.66 µg/mL
Cc1cc(C#N)cc(C)c1Oc1nc(NC2CCN(S(=O)(=O)c3ccc(C#N)cc3)CC2)nc2ccsc12 | MT-4 | >20.98 µM
O=C1Nc2ccc(F)cc2[C@@]12C[C@@H]2c1ccccc1 | MT-4 | >10.85 µg/mL
C[C@H](CS)C(=O)N1CCC[C@@H]1c1nc2c(Cl)cccc2[nH]1 | MT-4 | >28.17 µg/mL
N#Cc1ccc(Cn2cc(COc3nsnc3-c3cccc4ccccc34)nn2)cc1 | MT-4 | >13 µM
Cc1cc(C#N)cc(C)c1Oc1nc(Nc2ccc(NS(=O)(=O)c3ccc(C#N)cc3)cc2)nc2ccsc12 | MT-4 | >46.73 µM
Nn1c(-c2ccc(Cl)c(Cl)c2)n[nH]c1=S | MT-4 | >72.83 µg/mL
O=C(COc1nsnc1-c1cccc2ccccc12)Nc1ccccc1F | MT-4 | >126 µM
Nn1c(-c2ccc(O)c(Br)c2)n[nH]c1=S | MT-4 | >75.4 µg/mL
COc1cc(/C=C/c2nc(NC(=S)Nc3cccc([N+](=O)[O-])c3)c3ccccc3n2)cc(OC)c1OC | MT-4 | >3.07 µg/mL
CC(=O)Nn1cc(C(=O)O)c(=O)c2cc(N)c(N3CCN(c4ccccn4)CC3)cc21 | MT-4 | >295.9 µM
COc1cc(/C=C/c2nc(NC(=O)Nc3ccc([N+](=O)[O-])cc3)c3ccccc3n2)cc(OC)c1OC | MT-4 | >1.72 µg/mL
CC(=O)Nc1cnc(Oc2c(C)cc(Br)cc2C)nc1Nc1ccc(C#N)cc1 | MT-4 | >147 µM
C[C@]12CCC3C(CC=C4C[C@@H](O)CC[C@@]43C)C1CCC2C(=O)/C=C/c1ccccc1C(=O)O | MT-4 | >13.98 µM
Clc1ccc(-c2nc(-c3nnc(C45CCC6CC(CC4C6)C5)o3)cs2)cc1 | MT-4 | >125 µM
Cc1ccc(C2CC(C3CCC4C5CC=C6CC(O)CC[C@]6(C)C5CC[C@]34C)=NN2C(N)=S)cc1 | MT-2 | >7.49 µM
N#Cc1ccc(Nc2nc(Oc3c(Cl)cc(Cl)cc3Cl)ncc2N)cc1 | MT-4 | >26 µM
Cc1cn([C@H]2C[C@H](N=[N+]=[N-])[C@@H](CO)O2)c(=O)[nH]c1=O | MT-4 | 0.00094 µM
Cc1c(C(=O)O)c(=O)c2cc(N)c(N3CCN(c4ccccn4)CC3)cc2n1C | MT-4 | >177 µM
CCOC(=O)CNc1nc(Nc2ccc3ccccc3c2)nc(Oc2cc(=O)oc3ccccc23)n1 | MT-4 | >46.53 µg/mL
C[C@H](CSCC(=O)O)C(=O)N1CCC[C@@H]1C(=O)O | MT-4 | >125 µg/mL
COc1cc(/C=C/c2nc(NC(=S)Nc3ccccc3C)c3ccccc3n2)cc(OC)c1OC | MT-4 | >4.05 µg/mL
Cc1ccc(/C=N/Nc2nc(-c3ccc(Br)cc3)cs2)cc1 | MT-4 | >125 µM
Cc1cc(C#N)cc(C)c1Oc1nc(NC2CCN(S(=O)(=O)c3ccc4ccccc4c3)CC2)nc2ccsc12 | MT-4 | >219.4 µM
C[C@H](CS)C(=O)N1CCC[C@@H]1c1nc2c([N+](=O)[O-])cccc2[nH]1 | MT-4 | >11.27 µg/mL
CC1=C[C@H](Cn2cnc3c(=O)[nH]cnc32)C[C@@H]1CO | MT-4 | >100 µg/mL
Nn1c(-c2ccc(O)c(Cl)c2Cl)n[nH]c1=S | MT-4 | >72.83 µg/mL
COc1ccc(CCNc2nc(NC(=O)Nc3ccccc3)nc(Oc3cc(=O)oc4ccccc34)n2)cc1OC | MT-4 | >86.93 µg/mL
C/C(=N\Nc1nc(-c2ccc(C#N)cc2)cs1)c1ccc2c(c1)OCO2 | MT-4 | >68.28 µM
COc1cc(/C=C/c2nc(NC(=O)Nc3cccc([N+](=O)[O-])c3)c3ccccc3n2)cc(OC)c1OC | MT-4 | >1.17 µg/mL
O=C(NC(=S)NCCc1ccccc1Cl)c1csc(-c2ccccc2)n1 | MT-4 | 1.79 µM
COc1ccc(-c2ccc(N=Nc3c(N)nc(=O)n(C)c3N(C)C)cc2)cc1OC | MT-4 | >10.42 µM
CCOC(=O)CNc1nc(Nc2ccc(Cl)cc2)nc(Oc2cc(=O)oc3ccccc23)n1 | MT-4 | >45.6 µg/mL
Nc1ccc(-c2nn3c(-c4ccc(Cl)c(Cl)c4)nnc3s2)cc1 | MT-4 | >19.61 µg/mL
COc1ccc(/C=N/Nc2nc(-c3ccc(Cl)cc3)cs2)cc1 | MT-4 | >125 µM
N#Cc1ccc(Nc2nc(Oc3c(Cl)cccc3Cl)ncc2NC(=O)C(F)(F)F)cc1 | MT-4 | >190 µM
O=C(COc1nsnc1-c1cccc2ccccc12)Nc1ccccc1Cl | MT-4 | >126 µM
COc1cc(/C(C)=N/Nc2nc(-c3ccc(Cl)cc3)cs2)cc(OC)c1OC | MT-4 | >16.39 µM
Cc1cc(C#N)cc(C)c1Oc1nc(Nc2ccc(NS(=O)(=O)c3ccc([N+](=O)[O-])cc3)cc2)nc2ccsc12 | MT-4 | >91.4 µM
N#Cc1ccc(Nc2nc(Oc3c(Br)cc(Br)cc3Br)ncc2N)cc1 | MT-4 | >37 µM
Cc1ccc(NC(=O)COc2nsnc2-c2cccc3ccccc23)c(Br)c1 | MT-4 | >14 µM
Cc1cc(C#N)cc(C)c1Oc1nc(NC2CCN(S(=O)(=O)N3CCOCC3)CC2)nc2ccsc12 | MT-4 | >236.4 µM
CCOC(=O)CNc1nc(NC(=O)Nc2ccc3ccccc3c2)nc(Oc2cc(=O)oc3ccccc23)n1 | MT-4 | >125 µg/mL
COc1cc(/C=C/c2nc(NC(=O)Nc3ccc(C)cc3)c3ccccc3n2)cc(OC)c1OC | MT-4 | >2.75 µg/mL
COc1ccc(CCNc2nc(NC(=O)Nc3ccc(F)cc3)nc(Oc3cc(=O)oc4ccccc34)n2)cc1OC | MT-4 | >19.75 µg/mL
CCCCCCNc1c(N=Nc2ccc(Cl)cc2)c(N)nc(=O)n1C | MT-4 | >66.6 µM
CCOC(=O)CNc1nc(Nc2ccccc2)nc(Oc2cc(=O)oc3ccccc23)n1 | MT-4 | >61.15 µg/mL
C/C(=N\Nc1nc(-c2ccc(Br)cc2)cs1)c1ccc(-n2ccnc2)cc1 | MT-4 | >87.33 µM
N#Cc1ccc(Nc2nc(Oc3c(Cl)cccc3Cl)ncc2N)cc1 | MT-4 | >33 µM
Cc1cc(C#N)cc(C)c1Oc1nc(NC2CCN(S(=O)(=O)c3ccc(-c4ccccc4)cc3)CC2)nc2ccsc12 | MT-4 | >209.8 µM
CC(Oc1nsnc1-c1cccc2ccccc12)C(=O)Nc1ccccc1Cl | MT-4 | >17 µM
Nc1cc(O)ccc1-c1n[nH]c(=S)n1N | MT-4 | >12 µg/mL
CCCNc1c(N=Nc2ccc(-c3ccc(OC)c(OC)c3)cc2)c(N)nc(=O)n1C | MT-4 | >36.76 µM
C/C(=N\Nc1nc(-c2ccc(Cl)cc2)cs1)c1ccc(-c2ccc(Br)cc2)cc1 | MT-4 | >10.23 µM
C[C@]12CCC3C(CC=C4C[C@@H](O)CC[C@@]43C)C1CCC2C(=O)/C=C/c1ccc(C(F)(F)F)cc1 | MT-4 | >55.38 µM
O=C(COc1nsnc1-c1cccc2ccccc12)Nc1ccccn1 | MT-4 | >13 µM
Cc1ccccc1-c1nc(-c2nnc(C34CCC5CC(CC3C5)C4)o2)cs1 | MT-4 | >10.5 µM
O=C(COc1nsnc1-c1cccc2ccccc12)Nc1ccc(Cl)cc1Cl | MT-4 | >116 µM
C[C@]12CCC3C(CC=C4C[C@@H](O)CC[C@@]43C)C1CCC2C(=O)/C=C/c1ccc2c(c1)Cc1ccccc1-2 | MT-4 | >7.62 µM

ECn: concentration that inhibits the pathogen or its effect by n%.